Reference: ChEMBL document CHEMBL1201862, “PubChem BioAssay data set” (2004)
The list shows a part of the results. Only a part of the results of these assays is listed, not drawn at random. Active and inactive are the calls of the source. The calls are words filed in the database; no cut-off is given here.

Test system: Plasmodium falciparum
Assay: Primary qHTS for delayed death inhibitors of the malarial parasite plastid, 96 hour incubation. [Related pubchem assays (depositor defined):AID488745, AID488752, AID488774, AID504848, AID504850]
Assay type: functional

Row | Structure (SMILES) | Potency
1 | CCc1nc2c([nH]1)c1no[n+]([O-])c1c1no[n+]([O-])c21 | active: 4.65 µM
2 | CCOC(=O)C(CC)C1=NC(C)(C)Cc2ccccc21 (configuration not stated) | inactive
